# According to US20220267415A1 (University of Texas, published 2022):
# Read-outs that look alike come from different tables or passages of the source.
# Key:
# Test in all cases: cell-based or functional assay
# [1] = target: B.1.617.2 Delta variant spike protein on recombinant USA-WA1/2020 virus (SARS-CoV-2)
# [2] = target: AY.4.2 (Delta subvariant) spike protein on recombinant USA-WA1/2020 virus (SARS-CoV-2)
# [3] = target: T1, P.1 Gamma variant spike protein on recombinant USA-WA1/2020 virus (SARS-CoV-2)
# [4] = target: T1, P.1 Gamma variant spike protein on …; remark: listed apart in the source
binder,measurement,setting,value
"anti-SARS-CoV2-14 IgG (full lambda light chain) (antibody, V domains shown) VH: EVQLQQSGPGLVKPSQTLSLTCAISGDSVSSNSAAWNWIRQSPSRGLEWLGRTYYRSKWYNDYAVSVKSRITINPDTSKNQFSLQLNSVTPEDTAVYYCAREEQQLVHDYYYYGMDVWGQGTMVTVSS VL: QAVVTQPASVSGSPGQSITISCTGTSSDIGAYNYISWYQQHPGKAPKLIIYEVSNRPSGISYRFSGSKSGNTASLTISGLQAEDEANYYCSSYAGSISFGGGTKVTVL",Neutralization EC50 (PRNT),[1],0.57 µg/mL
same,Neutralization EC50 (PRNT),[2],0.44 µg/mL
same,Neutralization EC50 (PRNT),[3],13 µg/mL
same,Neutralization EC50 (PRNT),[4],12.6 µg/mL
